The target of this experiment is constitutively active VirG protein (VirG^con) of A. tumefaciens (Agrobacterium tumefaciens) (UniProt P62722). The experiment is described as follows: cell-based or functional assay.

Turning to “A. tumefaciens RpoA (α subunit of RNA polymerase), untagged, expressed in E. coli MC4100 (from UniProt P0A4E3 1-336)”, the β-galactosidase activity, virB::lacZ in E. coli MC4100(pSY215) plus pPS1.3 stood at 140 Miller Units.

Values taken from patent publication US6764837 (BOARD OF TRUSTEES OF THE UNIVERSITY OF ARKANSAS, dated 2004).
